Pooled drug test results. Numbers come from NIAID ChemDB, via PubChem.

Shared fields: growth or infection tests; species: Candida albicans; endpoint: MIC

Rows are shuffled and stem from different studies. a–b is a range or a potency band.

Clc1nc(NC2CC2)nc(N2CCN(c3ccccc3)CC2)n1 ; strain: MTCC 183 ; read by: agar ; result: 50 µg/mL
Clc1ccccc1C=Nc1ccc(N2CCOCC2)cc1 ; strain: ATCC 2091 ; result: 23 µg/mL
CCC(C)CC(C)CCCCCCCCC(=O)N[C@H]1C[C@@H](O)[C@H](NCCN)NC(=O)[C@@H]2[C@@H](O)CCN2C(=O)[C@H]([C@H](O)CCN)NC(=O)[C@H]([C@H](O)[C@@H](O)c2ccc(O)cc2)NC(=O)[C@@H]2C[C@@H](O)CN2C(=O)[C@H]([C@@H](C)O)NC1=O ; strain: 373 ; read by: broth dilution ; result: 0.12 µg/mL
CC1(C)CC[C@]2(C)CC=C3[C@]4(C)CCC5C(C)(C)[C@@H](O)CC[C@]5(C)C4CC[C@@]3(C)C2C1 ; read by: absorbance ; result: >250 µg/mL
Clc1cccc(N2CCN(c3nc(Cl)nc(NC4CC4)n3)CC2)c1 ; strain: MTCC 183 ; read by: agar ; result: 100 µg/mL
COc1ccc(C=NC23CC4CC(CC(C4)C2)C3)cc1OC ; result: 128 µg/mL
CCC(O)/C=C/C=C/C=C/C(=O)OC[C@H]1O[C@@H](O[C@H]2[C@H](OC(=O)/C=C/C=C/CC(O)/C(C)=C/C=C/CCC(C)CC)[C@@H](O)[C@@]3(OCc4cc(O)cc(O)c43)O[C@@H]2CO)[C@H](O)[C@@H](O)[C@H]1O ; strain: 83-2-14 ; result: 1.6 µg/mL
CNOC(=O)[C@@H](C)NC(=O)c1c(C)cc2c(c1O)-c1c(cc3c(c1O)C(=O)c1cc(OC)cc(O)c1C3=O)[C@H](O)[C@H]2OC1OC(C)C(NC)C(OC2OCC(O)C(O)C2O)C1O ; strain: A9540 ; result: 12.5 µg/mL
O=C1c2ccccc2CC1Cn1ccnc1 ; strain: RTCC 1003 ; read by: broth dilution ; result: >64 µg/mL
Cc1ccc(OC(CCn2ccnc2)c2ccccc2)cc1 ; result: 10.2 µg/mL
COc1ccc(N2CCN(c3nc(NCCNc4ncnc5c(Br)cc(Br)cc45)nc(NC4CC4)n3)CC2)cc1 ; strain: MTCC 183 ; read by: agar ; result: 50 µg/mL
CCc1c(C(c2ccccc2)n2cncn2)cnn1-c1ccccc1 ; result: >200 µM
CC(C)=CCC/C(C)=C\CCOC(Cn1ccnc1)c1ccc(Cl)cc1Cl ; strain: TIMM0144 ; result: 20–40 µg/mL
CN(C)c1ccc(C=Nc2ccc(S(=O)(=O)Nn3c(Cc4ccccc4Nc4c(Cl)cccc4Cl)nc4ccccc4c3=O)cc2)cc1 ; read by: broth dilution ; result: >1000 µg/mL
COC(=O)Nc1ccc2c(c1)nc(-c1ccccc1)n2O ; read by: broth dilution ; result: 200 µg/mL
C[C@H]1[C@H](O)[C@@H](C)/C=C/C=C/C=C/C=C/C=C/C=C/C=C/[C@H](O[C@@H]2O[C@H](C)[C@@H](O)[C@H](N)[C@@H]2O)C[C@@H]2O[C@](O)(C[C@@H](O)C[C@@H](O)CC[C@H](O)[C@@H](O)C[C@@H](O)CC(=O)O[C@H]1C)C[C@H](O)[C@H]2C(=O)O ; strain: ATCC 90028 ; result: 2.9 µg/mL
COc1ccc(-c2cc3cc(CCCO[C@@H]4O[C@H](CO)[C@@H](O)[C@H](O)[C@H]4O)cc(OC)c3o2)cc1OC ; strain: ICB 12 ; result: 20 µg/mL
COC(=O)N1CCOc2ccccc21 ; read by: broth dilution ; result: 320 µg/mL
COC(=O)C1=C(C)NC(C)=C(C(=O)OC)C1c1ccccc1[N+](=O)[O-] ; strain: 66 strains ; result: 374 µg/mL
CC(C)=CCOC(Cn1ccnc1)c1ccc(Cl)cc1Cl ; strain: TIMM0144 ; result: 80–160 µg/mL
c1ccc(-c2c(C(c3ccccc3)n3ccnc3)cnn2-c2ccccc2)cc1 ; result: >200 µM
CNC1C(C)OC(O[C@H]2c3cc(C)c(C(=O)N[C@H](C)C(=O)N[C@@H](C)C(=O)O)c(O)c3-c3c(cc4c(c3O)C(=O)c3cc(OC)cc(O)c3C4=O)[C@@H]2O)C(O)C1OC1OCC(O)C(O)C1O ; strain: A9540 ; result: >100 µg/mL
CCOc1ccc2nc3cc(N=C4NC(=O)/C(=C\c5ccc([N+](=O)[O-])cc5)S4)ccc3c(N)c2c1 ; strain: ATCC 60193 ; read by: broth dilution ; result: 500 µg/mL
C[C@@H]1[C@H](O)[C@@H](C)/C=C/C=C/C=C/C=C/C=C/C=C/C=C/[C@H](O[C@@H]2O[C@H](C)[C@@H](O)[C@H](N)[C@@H]2O)C[C@@H]2O[C@](O)(C[C@@H](O)C[C@@H](O)[C@H](O)CC[C@@H](O)C[C@@H](O)CC(=O)O[C@H]1C)C[C@H](O)[C@H]2C(=O)O ; strain: ATCC 90028 ; read by: MTT ; result: 3 µg/mL
COC(=O)Nc1ccc(N2CC(C)=C(C)CO2)cc1 ; read by: broth dilution ; result: 100 µg/mL
Oc1ccccc1C=Nc1ccc(N2CCOCC2)cc1 ; strain: ATCC 2091 ; result: 28 µg/mL
NC(N)=NCCC[C@H](NC(=O)Cc1ccccc1)C(=O)NCCCCCCCCCCCCNC(=O)[C@H](CCCN=C(N)N)NC(=O)Cc1ccccc1 ; result: 149 µM
CC1C=C(c2cccc(F)c2)C(=O)O1 ; strain: ATCC 44859 ; result: >125 µM
Nc1ncccc1-c1cc(Cc2ccc(COc3ccccn3)cc2)no1 ; strain: 8649 ; read by: broth dilution ; result: <0.008 µg/mL
C=C1/C=C(\C)[C@H](CC)OC(=O)[C@H](C)C(=O)C(O)(CO)C/C(C)=C/[C@@H](C)C1 ; strain: MY1005 ; result: >200 µg/mL
CCCCCCCCC(=O)[C@H]1O[C@H]1C(=O)N(CC)CC ; strain: SC5314 ; result: 12.5 µg/mL
C[C@@H](n1ccnn1)[C@@](O)(Cn1cncn1)c1ccccc1F ; strain: IFO 0583 ; result: >100 µg/mL
CNC1C(C)OC(O[C@H]2c3cc(C)c(C(=O)N[C@H](C)C(=O)N[C@H](C)C(=O)O)c(O)c3-c3c(cc4c(c3O)C(=O)c3cc(OC)cc(O)c3C4=O)[C@@H]2O)C(O)C1OC1OCC(O)C(O)C1O ; strain: A9540 ; result: 25 µg/mL
CC1C=C(c2ccc([N+](=O)[O-])cc2)C(=O)O1 ; strain: ATCC 44859 ; result: >125 µM
C[C@H]1[C@H](O)[C@@H](C)/C=C/C=C/C=C/C=C/C=C/C=C/C=C/[C@H](O[C@@H]2O[C@H](C)[C@@H](O)[C@H](N)[C@@H]2O)C[C@@H]2O[C@](O)(C[C@@H](O)C[C@@H](O)CC[C@H](O)[C@@H](O)C[C@@H](O)CC(=O)O[C@H]1C)C[C@H](O)[C@H]2C(=O)O ; strain: ATCC 90028 ; read by: broth dilution ; result: 0.25 µg/mL
COc1ccc(CN2CCN(c3nc(Cl)nc(NC4CC4)n3)CC2)c(OC)c1OC ; strain: MTCC 183 ; read by: agar ; result: 25 µg/mL
C[N-]c1nc(NOC)c2c(n1)[N+](C)=C=[N+]2C/C=C(\C)CC/C=C(\C)CC/C=C(\C)CCC=C(C)C ; strain: ATCC 90028 ; read by: agar ; result: 2 µg/mL
COc1cc(C=Nc2ccc(N3CCOCC3)cc2)cc(OC)c1OC ; strain: ATCC 2091 ; result: 23 µg/mL
C[C@H](n1ccnn1)[C@](O)(Cn1cncn1)c1ccc(F)cc1 ; strain: TA ; result: 25 µg/mL
CCCCCCCCC(=O)[C@H]1O[C@H]1C(=O)NCc1ccccc1 ; strain: G2-sensitive ; result: 6.25 µg/mL
C[C@@H](n1cnnn1)[C@@](O)(Cn1cncn1)c1ccc(F)cc1F ; strain: TA ; result: >100 µg/mL
FC(F)(F)c1cccc(N2CCN(c3nc(NCCNc4ncnc5c(Br)cc(Br)cc45)nc(NC4CC4)n3)CC2)c1 ; strain: MTCC 183 ; read by: agar ; result: 25 µg/mL
NC(N)=NCCC[C@H](NC(=O)Cc1ccccc1)C(=O)NCCCCCCNC(=O)[C@H](CCCN=C(N)N)NC(=O)Cc1ccccc1 ; result: >323 µM
O=C(CCn1ccnc1)c1ccc(Br)cc1 ; strain: RTCC 1003 ; read by: broth dilution ; result: >64 µg/mL
CCCCCOc1ccc(-c2cc(-c3ccc(C(=O)N[C@H]4C[C@@H](O)[C@@H](O)NC(=O)[C@@H]5[C@@H](O)[C@@H](C)CN5C(=O)[C@H]([C@H](O)CC(N)=O)NC(=O)[C@H]([C@H](O)[C@@H](O)c5ccc(O)c(OS(=O)(=O)O)c5)NC(=O)[C@@H]5C[C@@H](O)CN5C(=O)[C@H]([C@@H](C)O)NC4=O)cc3)no2)cc1 ; strain: ATCC 90028 ; result: 0.0156 µg/mL
OC(CCn1ccnc1)c1cccc(C(O)c2ccc(Cl)cc2)c1 ; strain: RTCC1024 ; read by: broth dilution ; result: >64 µg/mL
CCCCCCCCCCCCC(OC)C(=O)O ; strain: ATCC 14053 ; result: >110 µM
CNC1C(C)OC(O[C@H]2c3cc(C)c(C(=O)N[C@H](C)C(=O)OCOC(=O)C(C)(C)C)c(O)c3-c3c(cc4c(c3O)C(=O)c3cc(OC)cc(O)c3C4=O)[C@@H]2O)C(O)C1OC1OCC(O)C(O)C1O ; strain: A9540 ; result: >100 µg/mL
CC(C)c1c(C(c2ccccc2)n2ccnc2)cnn1-c1ccccc1 ; result: >200 µM
COc1cc(CCCO)cc2cc(-c3ccc4c(c3)OCO4)oc12 ; strain: ICB 12 ; result: 10 µg/mL
CO[N-]c1nc(Cl)nc2c1[N+](C/C=C(\C)CC/C=C(\C)CC/C=C(\C)CCC=C(C)C)=C=[N+]2C ; strain: ATCC 90028 ; read by: agar ; result: >16 µg/mL
Cc1c(O)cccc1C(=O)N[C@@H](CSc1ccccc1)[C@H](O)CN1C[C@H]2CCCC[C@H]2C[C@H]1C(=O)NC(C)(C)C ; strain: I123A ; result: 64 µg/mL
CO[N-]c1nc(C)nc2c1[N+](C/C=C(\C)CC/C=C(\C)CC/C=C(\C)CCC=C(C)C)=C=[N+]2C ; strain: ATCC 90028 ; read by: agar ; result: 4 µg/mL
COC(=O)N1CCOc2ccc([N+](=O)[O-])cc21 ; read by: broth dilution ; result: 320 µg/mL
CC[C@@H]1OC(=O)[C@H](C)C(=O)C(O)(CO)C/C(SC)=C/[C@@H](C)Cc2cccc1c2 ; strain: ATCC 90028 ; result: >64 µg/mL
C[C@@H](n1ccnn1)[C@@](O)(Cn1cncn1)c1ccc(F)cc1 ; strain: TA ; result: 100 µg/mL
CCCc1c(C(c2ccccc2)n2cncn2)cnn1-c1ccccc1 ; result: >200 µM
NC(N)=NCCC[C@H](NC(=O)Cc1ccccc1)C(=O)NCCCCCCCCNC(=O)[C@H](CCCN=C(N)N)NC(=O)Cc1ccccc1 ; result: 319 µM
C[C@H](n1ccnn1)[C@@](O)(Cn1cncn1)c1ccccc1F ; strain: TA ; result: 25 µg/mL
CC(C)=CC1C[C@](C)(O)C2C3CCC4[C@@]5(C)CC[C@H](O[C@@H]6OC[C@H](O)[C@H](OC7O[C@H](CO)[C@@H](O)[C@H](O)[C@H]7O)[C@H]6O[C@@H]6O[C@@H](CO)[C@H](O)[C@H]6O)C(C)(C)C5CC[C@@]4(C)[C@@]34CO[C@@]2(C4)O1 ; strain: ATCC 3153 ; result: 120 µg/mL
CC1C=C(c2ccc(Br)c(Br)c2)C(=O)O1 ; strain: ATCC 44859 ; result: 31.25 µM
CC1C(=O)C(C)C(c2ccccc2)N(OCCc2nc3ccccc3o2)C1c1ccccc1 ; result: 100 µg/mL
C1=Cc2ccccc2C(c2ccc(N=Cc3ccccc3)cc2)c2ccccc21 ; strain: ATCC 24433 ; result: >1000 µg/mL
COc1ccc(C2CC(=O)CC(c3ccc(OC)cc3)N2OCCc2nc3ccccc3o2)cc1 ; result: 50 µg/mL
CC[C@@H](C)[C@H](OC(=O)/C=C/c1ccccc1)[C@H](C)[C@H](O)C/C=C/C=C/C(N)=O ; result: 1 µg/mL
CCC(C)CC(C)CCCCCCCCC(=O)N[C@H]1C[C@@H](O)[C@H](NCCN)NC(=O)[C@@H]2[C@@H](O)CCN2C(=O)[C@H]([C@H](O)CCN)NC(=O)[C@H]([C@H](O)[C@@H](O)c2ccc(O)cc2)NC(=O)[C@@H]2C[C@@H](O)CN2C(=O)[C@H]([C@@H](C)O)NC1=O ; strain: 40 isolates ; result: 8–32 µg/mL
COc1cc(C=Nc2ccc(N3CCOCC3)cc2)ccc1O ; strain: ATCC 2091 ; result: 20 µg/mL
CC1C(=O)CC(c2ccccc2)N(OCCc2nc3ccccc3o2)C1c1ccccc1 ; result: 50 µg/mL
CC1(C)S[C@@H]2[C@H](NC(=O)[C@H](N)c3ccccc3)C(=O)N2[C@H]1C(=O)O ; strain: ATCC 2002 ; read by: broth dilution ; result: 4.7 µg/mL